Measured values: patent publication US11519017B2, “Kit for diagnosing infection with Methicillin-resistant Staphylococcus aureus (MRSA) by detecting magnesium ions” (Bioacts Corporation, priority 2017, dated 2022)

Legend:
Type in all cases: physicochemical
[1] = Evaluation of magnesium ion sensitivity at concentration of less than 10 mM; conditions: for discoloration at magnesium ion concentration of less than 10 mM: MgCl2 up to 8 mM
Description: Magnesium chloride was dissolved in deionized water and diluted to 8, 10, 12, 14 and 16 mM, respectively, to prepare specimens. Next, as the dye compounds, the HNB and the compound of Chemical Formula 2 were prepared at a concentration of 240 μM, but the compounds of Chemical Formulas 3 and 4 were prepared to be diluted at a concentration of 120 μM by 50% because the molar absorption coefficient of the compounds was two times higher than that of the control (HNB).
In each row of a 96-well plate, […] of the dye compound was filled, and in each column, […] of a diluted magnesium chloride solution was filled, and then the color changes were observed and absorbance was measured. The final concentrations of magnesium chloride in the 96-well plate were 0, 4, 5, 6, 7, and 8 mM, and the final concentrations of HNB and Chemical Formula 2 were 120 μM, respectively, and the final concentrations of Chemical Formulas 3 and 4 were 60 μM, respectively.

[2] = Evaluation of magnesium ion sensitivity at concentration of 10 mM or more; conditions: dye 120 μM; for magnesium concentration at which color development starts: magnesium 10 mM to 100 mM
[3] = Evaluation of magnesium ion detection characteristics and pH stability (color development, 96 well plate); conditions: for color developed in the presence of magnesium: MgCl2 solution; for color development (discoloration) in the presence of magnesium ions: MgCl2 solution versus blank, final specimen concentration 120 μM; for color developed in the absence of magnesium ions: blank and pH 4 to 11 buffers
Description: 200 mM of a magnesium chloride solution was prepared by dissolving 0.9521 g of magnesium chloride in 50 ml of deionized water.
59.99 mg of sodium phosphate monobasic and 70.98 mg of sodium phosphate dibasic were dissolved in 50 ml of distilled water to prepare 10 mM of a sodium phosphate buffer solution, and then 28.85 ml of a sodium phosphate monobasic solution and 21.15 ml of a sodium phosphate dibasic solution were mixed to prepare a sodium phosphate buffer solution at pH 7. In a similar manner, the two solutions were mixed to prepare sodium phosphate buffer solutions having acidity of pH 4, pH 7, pH 9, and pH 11, respectively.
For determination of color development, the HNB and the candidate substance were prepared at concentrations of 240 μM and used for the test.
Hydroxynaphthalene blue (HNB) and 9 types of water-soluble candidate substances selected by the solubility test were diluted with distilled water to prepare specimens at concentrations of 240 μM, respectively.
It was confirmed whether the candidate substances according to the present invention reacted with magnesium ions to be color-developed (discolored). In addition, pH stability was confirmed according to whether the candidate substances were specifically color-developed by reacting only with magnesium ions regardless of a pH change.
The color development of the control (HNB) and […] of candidate substances was confirmed under conditions of blank, a MgCl2 solution, pH 4, pH 7, pH 9, and pH 11 using a 96 well plate (12×6 holes). Specifically, 100 μl of deionized water (blank) was added in a first row of the plate, 100 μl of the MgCl2 solution was added in a second row thereof, and 100 μl of each of solutions at pH 4, pH 7, pH 9, and pH 11 was added in third to sixth rows thereof using 10 mM of the sodium phosphate buffer solution prepared in step a) above. In columns of the plate, 100 μl of specimens prepared at a concentration of 240 μM were added to 6 rows, respectively, and a total of 36 specimens were screened. The final concentration of the MgCl2 solution contained in each well was 100 mM and the final concentration of the specimen was 120 μM.

Row | Molecule | discoloration at magnesium ion concentration of less than 10 mM [1] | magnesium concentration at which developed to dark blue [2] [mM] | magnesium concentration at which color development starts [2] [mM] | magnesium concentration at which remarkably developed to cherry red instead of violet [2] [mM] | color developed in the presence of magnesium [3] | color development (discoloration) in the presence of magnesium ions [3] | color developed in the absence of magnesium ions [3] | magnesium concentration at which developed to blue violet [2] | magnesium chloride concentration at which a complementary color was exhibited ([1]; dye final 60 μM, MgCl2 0, 4, 5, 6, 7, 8 mM) [mM]
1 | hydroxynaphthalene blue [HNB, reference compound] | not discolored | ≥ 40 | ≥ 10 |  |  |  |  |  | 
2 | O=[N+]([O-])c1ccc(O)c(N=Nc2cc(S(=O)(=O)O)c3ccccc3c2O)c1 [Chemical Formula 2] | not discolored |  |  | ≥ 100 |  |  |  |  | 
3 | O=[N+]([O-])c1cc(N=Nc2c(S(=O)(=O)O)cc3cc(Nc4ccccc4)ccc3c2O)c(O)c([N+](=O)[O-])c1 [Chemical Formula 4] | not discolored |  | 10 |  | dark violet | developed to a complementary color | red | about 20 mM | 
4 | Nc1ccc2c(O)c(N=Nc3ccc([N+](=O)[O-])cc3O)c(S(=O)(=O)O)cc2c1 [Chemical Formula 3] |  |  |  |  | dark blue | developed to a complementary color | orange or violet |  | 4
